Genome-wide point mutation profile of HIV-1: RT

Source: Al-Mawsawi et al. 2014 (doi:10.1186/s12977-014-0124-6), supplementary data.

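Random point mutant libraries of HIV-1 NL4-3, one for each of seven fragments, were passaged in CEM T lymphocytes. The RC index is the frequency of a change after passage round 2 divided by its frequency in the plasmid library.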

Protein: RT of HIV-1 NL4-3, numbered from its first residue.
Effects on overlapping genes or RNA elements are not listed.

A higher RC index is a better tolerated change; approximate classes are lethal up to 0.1, attenuated to 0.2, tolerated above.
Substitutions are written as wild-type residue, site number, new residue.

change,base,RC index
S322P,T3513C,0.130
K323E,A3516G,0.0370
K323T,A3517C,0.0451
D324G,A3520G,0.423
L325S,T3523C,0.117
I326V,A3525G,0.0534
I326L,A3525T,0.0350
I326K,T3526A,0.0271
I326T,T3526C,0.129
A327T,G3528A,0.835
A327P,G3528C,0.228
E328G,A3532G,0.0634
I329K,T3535A,0.0701
K331N,G3542T,0.0557
G333R,G3546A,0.500
Q334L,A3550T,0.0253
Q334H,A3551C,0.172
G335V,G3553T,0.210
Q336R,A3556G,0.0479
Q336L,A3556T,0.0673
Q336H,A3557T,0.0471
W337R,T3558A,0.0490
W337L,G3559T,0.0930
T338S,A3561T,0.0531
Y339F,A3565T,0.0369
Q340R,A3568G,0.0593
Q340H,A3569T,0.0713
I341V,A3570G,0.0461
I341M,T3572G,0.0564
Y342N,T3573A,0.0745
Y342H,T3573C,0.0451
Y342F,A3574T,0.0848
P345T,C3582A,0.140
P345L,C3583T,0.208
F346L,T3585C,0.0932
F346L,T3587A,0.0333
K347R,A3589G,0.0386
K347I,A3589T,0.0538
N348Y,A3591T,0.0654
N348S,A3592G,0.0185
L349M,C3594A,0.162
T351A,A3600G,0.0587
K353R,A3607G,0.0551
K353M,A3607T,0.0353
A355S,G3612T,0.183
R356S,A3617T,0.0451
M357K,T3619A,0.0562
M357T,T3619C,0.0555
M357I,G3620A,0.960
K358M,A3622T,0.0969
A360S,G3627T,0.0905
A360D,C3628A,0.114
H361Y,C3630T,0.181
T362N,C3634A,0.108
N363Y,A3636T,0.0456
N363I,A3637T,0.0213
D364E,T3641A,0.0548
K366I,A3646T,0.124
Q367H,A3650T,0.0402
L368V,T3651G,0.0781
T369A,A3654G,0.0466
E370A,A3658C,0.0474
E370V,A3658T,0.123
E370D,G3659T,0.0590
K374T,A3670C,0.0182
K374I,A3670T,0.0808
I375V,A3672G,0.0304
I375K,T3673A,0.166
A376P,G3675C,0.303
T377S,A3678T,0.0478
E378G,A3682G,0.0885
E378D,A3683T,0.0463
I380V,A3687G,0.0742
I380L,A3687T,0.0468
I380K,T3688A,0.0382
V381E,T3691A,0.0263
W383C,G3698C,0.150
W383C,G3698T,0.173
K385R,A3703G,0.0843
K385M,A3703T,0.0634
K385N,G3704C,0.190
P387H,C3709A,0.126
P387L,C3709T,0.180
K388R,A3712G,0.0334
K388I,A3712T,0.0439
K390I,A3718T,0.0799
L391I,T3720A,0.0874
L391V,T3720G,0.0590
L391S,T3721C,0.0787
P392S,C3723T,0.113
P392H,C3724A,0.0872
I393L,A3726T,0.0682
I393T,T3727C,0.234
Q394H,A3731C,0.198
K395M,A3733T,0.0348
E396K,G3735A,1.01
E396G,A3736G,0.0724
T397S,A3738T,0.0416

The last 11 entries again:

| change | base | RC index |
|---|---|---|
| L391V | T3720G | 0.0590 |
| L391S | T3721C | 0.0787 |
| P392S | C3723T | 0.113 |
| P392H | C3724A | 0.0872 |
| I393L | A3726T | 0.0682 |
| I393T | T3727C | 0.234 |
| Q394H | A3731C | 0.198 |
| K395M | A3733T | 0.0348 |
| E396K | G3735A | 1.01 |
| E396G | A3736G | 0.0724 |
| T397S | A3738T | 0.0416 |

Clones carried about five changes per kilobase, which can drag down the index of neutral changes.
Nucleotide positions follow pNL4-3.
The authors read an index above 1 as above wild type (1.9% of all changes in the genome).